This is an account of results in article PMC9792601 (Frontiers in Chemistry, 2022).

A short description of the data set: general procedure: Fmoc solid-phase peptide synthesis; Fmoc-Gly preloaded Wang resin (loading 0.4-0.9 mmol/g); COMU/DIPEA or DIC/OxymaPure. Conditions: whole synthesis, scale of the general procedure 0.1 mmol.

Strings that start with PEPTIDE1 are HELM notation: dots part the residues, brackets hold end groups and non-standard residues.

On to “PEPTIDE1{A.I.A.I.G.V.V.Q.G.L.A.F.A.L.G.G.K.K.K.G}$$$$V2.0”, for which the isolated yield is on record as 60%. Besides, the “final HPLC purity” value (200-203 nm) is on record as 96%.
